Measured values: paper PMC2928817 (PLoS Pathogens, 2010)

Tests used:
Assay type in all cases: cell-based, 2009 pandemic influenza A (H1N1) virus
Settings in all cases: MOI 0.0001, 10 µM added 1 h pi, titers 8-48 h pi
[1] = test system: A/Osaka/164/2009 (O164s); test: In vitro growth kinetics in MDCK cells, O164s
[2] = test system: A/Vietnam/HN32060/2009 (VN32060r); test: In vitro growth kinetics in MDCK cells, VN32060r
[3] = test system: A/Osaka/180/2009 (O180r); test: In vitro growth kinetics in MDCK cells, O180r
[4] = test system: A/Vietnam/HCM9727/2009 (VN9727s); test: In vitro growth kinetics in MDCK cells, VN9727s

[H]/N=C(\N)N[C@H]1C=C(C(=O)O)O[C@@H]([C@H](OC)[C@H](O)CO)[C@@H]1NC(C)=O
inhibited the replication: growth of O164s in the presence of NA inhibitor [1] | growth of VN32060r in the presence of NA inhibitor [2] | growth of O180r in the presence of NA inhibitor [3] | growth of VN9727s in the presence of NA inhibitor [4]
